Test results taken from paper PMC10696396, “HilE represses the activity of the Salmonella virulence regulator HilD via a mechanism distinct from that of intestinal long-chain fatty acids” (The Journal of Biological Chemistry, 2023).
For at least one entry, the source does not settle the construct or the ends of the probe. At least one verdict was read from the data and is not stated in words by the source. Protein sequences can lack the tags named with them.

Molecular target: T1, HilD (Salmonella enterica) (UniProt P0CL08)
T1 sequence (looked up, limits assumed): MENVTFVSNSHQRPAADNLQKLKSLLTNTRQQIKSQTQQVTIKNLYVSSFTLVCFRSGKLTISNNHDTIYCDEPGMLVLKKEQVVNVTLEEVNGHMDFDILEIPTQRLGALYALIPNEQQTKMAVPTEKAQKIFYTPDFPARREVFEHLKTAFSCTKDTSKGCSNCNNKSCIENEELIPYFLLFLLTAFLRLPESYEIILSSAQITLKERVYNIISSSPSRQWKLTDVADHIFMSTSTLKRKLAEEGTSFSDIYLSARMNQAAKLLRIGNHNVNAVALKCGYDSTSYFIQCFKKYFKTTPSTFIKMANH
Assay: EMSA
Settings: no fatty acid; recombinant protein; label: 5'-Cy5 on forward strand

Sequence: GGGAGTAAAGAAAAGACGATATCATTATTTTGCAAAAAAATATAAAAATAAGCGCACCATTA (double strand) [hilA promoter A1 fragment, 62 bp]
- binding result: binds
